Read-outs that look alike come from different tables or passages of the source.
Test system: Y188L RT mutant VSV-G pseudotyped HIV-1 vector
Assay type: cell-based

## Cc1cn([C@H]2C[C@H](N=[N+]=[N-])[C@@H](CO)O2)c(=O)[nH]c1=O [AZT, 3’-azido-3’-deoxythymidine]
293T cells
  fold change in EC50 for mutant relative to wild type, Y188L: [0.8]

## Clc1ccccc1-c1nc2ccccn2c1NC1CCCCC1 [F2]
  fold change in EC50 for mutant relative to wild type, Y188L: [>121.1]

## Cc1ccnc2c1NC(=O)c1cccnc1N2C1CC1 [NVP, nevirapine]
293T cells
  fold change in EC50 for mutant relative to wild type, Y188L: [>1052.6]

— paper PMC3560175 (Virology Journal, 2012)
